Results deposited as PubChem BioAssay AID504761 (Drosophila RNAi Screening Center, 2011)
In all, the deposit lists about 22,000 reagents; below is an unselected part of those with a known target gene and a result. In the full data, 116 (0.52%) are marked active. 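Calls depend on retest data that are not deposited; infection was ranked per plate without normalising between plates; the unit of the infection score is not given.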 Raw values are not corrected between plates. Not stated in the record: the amount of reagent, the time to read-out.

Assay: 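Fly genes whose silencing reduces dengue virus type 2 infection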 (primary screen)
Cell system: D.Mel-2 cells from Drosophila
Knock-down reagent: long dsRNA against Drosophila genes
Treatment: infection with dengue virus type 2; dose and infection time not stated
Detection: 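Per well on two replicate plates, imaging gave the percent of cells positive for viral envelope protein, ranked by infection, and a nuclear count of cells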
Scale: infection score: higher = more virus-infected cells; cell count: higher = more cells in the well
Rule for the call: 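Low infection ranks in the two replicates (chance level up to 0.065) followed by a retest with a 1.5-fold or larger significant decrease, p below 0.05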
Calls: active = confirmed: knock-down lowers infection; inactive = not picked or not confirmed

Against CG31869 [DRSC02582], the values are infection score, replicate 1 = 10.7; infection score, replicate 2 = 5.88; cell count, replicate 1 = 6843; cell count, replicate 2 = 6923; inactive. Against CG31869 [DRSC02674], the values are infection score, replicate 1 = 5.23; infection score, replicate 2 = 6.27; cell count, replicate 1 = 6945; cell count, replicate 2 = 6698; inactive. Knock-down of GstD8 (Glutathione S transferase D8) [DRSC16689] gave: infection score, replicate 1 = 4.57; infection score, replicate 2 = 3.49; cell count, replicate 1 = 6565; cell count, replicate 2 = 6993; inactive. Against GstD8 (Glutathione S transferase D8) [DRSC24666], the entry reads infection score, replicate 1 = 1.72; infection score, replicate 2 = 2.44; cell count, replicate 1 = 6320; cell count, replicate 2 = 6117; inactive. CG12863 [DRSC06203] scored infection score, replicate 1 = 5.11; infection score, replicate 2 = 10.4; cell count, replicate 1 = 6010; cell count, replicate 2 = 6512; inactive. CG4836 [DRSC15659] showed infection score, replicate 1 = 7.63; infection score, replicate 2 = 2.18; cell count, replicate 1 = 6767; cell count, replicate 2 = 6295; inactive.

CG4836 [DRSC24789] showed infection score, replicate 1 = 3.24; infection score, replicate 2 = 0.88; cell count, replicate 1 = 6349; cell count, replicate 2 = 6135; inactive. With knock-down of CG34126 [DRSC02726], the record shows infection score, replicate 1 = 6.58; infection score, replicate 2 = 1.68; cell count, replicate 1 = 6091; cell count, replicate 2 = 6610; inactive. Against CG34126 [DRSC22079] the deposit lists infection score, replicate 1 = 1.77; infection score, replicate 2 = 1.65; cell count, replicate 1 = 6567; cell count, replicate 2 = 6429; inactive. Against CG9902 [DRSC20212] the deposit lists infection score, replicate 1 = 2.91; infection score, replicate 2 = 3.02; cell count, replicate 1 = 6591; cell count, replicate 2 = 6189; inactive. CG9902 [DRSC24871] scored infection score, replicate 1 = 14.4; infection score, replicate 2 = 25.5; cell count, replicate 1 = 4049; cell count, replicate 2 = 5189; inactive. For veil [DRSC06892], the values are infection score, replicate 1 = 5.79; infection score, replicate 2 = 7.05; cell count, replicate 1 = 6793; cell count, replicate 2 = 5646; inactive.

For CG2790 [DRSC04045], the values are infection score, replicate 1 = 4.38; infection score, replicate 2 = 8.56; cell count, replicate 1 = 6574; cell count, replicate 2 = 6413; inactive. After knock-down of CG2790 [DRSC25882], the screen gave infection score, replicate 1 = 4.67; infection score, replicate 2 = 2.59; cell count, replicate 1 = 6301; cell count, replicate 2 = 6613; inactive. CG1927 [DRSC08146] scored infection score, replicate 1 = 5.2; infection score, replicate 2 = 5.57; cell count, replicate 1 = 6590; cell count, replicate 2 = 6427; inactive. CG18682 (retired record) [DRSC15373] showed infection score, replicate 1 = 1.23; infection score, replicate 2 = 2.84; cell count, replicate 1 = 1959; cell count, replicate 2 = 7085; inactive. Against CG18682 (retired record) [DRSC15374], the values are infection score, replicate 1 = 5.7; infection score, replicate 2 = 0.92; cell count, replicate 1 = 2035; cell count, replicate 2 = 6717; inactive. With knock-down of CG6178 [DRSC15984] the results were infection score, replicate 1 = 2.24; infection score, replicate 2 = 1.94; cell count, replicate 1 = 6883; cell count, replicate 2 = 5879; inactive.

Against CG1360 [DRSC06406], the values are infection score, replicate 1 = 19.9; infection score, replicate 2 = 8.88; cell count, replicate 1 = 5250; cell count, replicate 2 = 6478; inactive. Depletion of CG1360 [DRSC29406] resulted in: infection score, replicate 2 = 7.97; cell count, replicate 1 = 240; cell count, replicate 2 = 1606; inactive. With knock-down of Aps (Aps pyrophosphatase) [DRSC10629], the screen gave infection score, replicate 1 = 2.59; infection score, replicate 2 = 3.36; cell count, replicate 1 = 6184; cell count, replicate 2 = 5839; inactive.

Part of the list above, reformatted.
target,amplicon,"infection score, replicate 1","infection score, replicate 2","cell count, replicate 1","cell count, replicate 2",call
CG2790,DRSC25882,4.67,2.59,6301,6613,inactive
CG1927,DRSC08146,5.2,5.57,6590,6427,inactive
CG18682 (retired record),DRSC15373,1.23,2.84,1959,7085,inactive
